Pooled drug test results. Numbers come from NIAID ChemDB, via PubChem.

All rows: tests in culture; species: Aspergillus niger; read-out: zone

Zone: diameter of growth inhibition. Conditions beyond the fields shown may differ between rows. An empty or dashed field is not shown.

compound | strain or isolate | method | tested at | result
COc1ccc(C2SCC(=O)N2NC(=O)Cn2c(=O)c(C)nc3ccccc32)cc1O | - | - | 50 µg/mL | 12 mm
CCOC(=O)Cn1c(C(F)(F)C(F)(F)F)nc2cc([N+](=O)[O-])ccc21 | MTCC 1344 | - | 500 µg/mL | 850 mm
O=C(CNc1ccc(Cl)cc1)Cc1ccc(-c2nc(-c3ccccc3)c(-c3ccccc3)s2)cc1 | ATCC 16404 | agar diffusion / agar | 100 µg/mL | 19 mm
Clc1ccc(NCc2cc3ccccc3nc2Cl)cc1Cl | MTCC 281 | agar diffusion | 200 µg/mL | 19.6 mm
CC1(C)CC(=O)C2=C(C1)OC1=C(C(=O)CC(C)(C)C1)C2c1cccc(C2C3=C(CC(C)(C)CC3=O)OC3=C2C(=O)CC(C)(C)C3)c1 | ATCC 10949 | agar diffusion | 40 µg/disc | 0 mm
Cc1nc2ccccc2n(CC(=O)NN2C(=O)CSC2c2ccc(N(C)C)cc2)c1=O | - | - | 100 µg/mL | 18 mm
O=C(NN=Cc1ccc(Cl)cc1)c1snnc1C(F)(F)F | MTCC 1344 | agar diffusion / agar | 150 µg/mL | 0 mm
Cc1ccc2c(c1)C(C=NNC(=O)N1c3ccccc3C=Cc3ccccc31)C(c1ccccc1)=N2 | MTCC 281 | agar diffusion | 500 µg/mL | 12 mm
COC1=CC(=O)C[C@@H](C)[C@]12Oc1c(Cl)c(OC)cc(OC)c1C2=O | - | - | 12.5 µg/mL | 18 mm
CC(=O)Nc1nc(C)c(-c2n[nH]c(=S)n2N2C(=O)CSC2c2cccc([N+](=O)[O-])c2)s1 | - | agar diffusion | 100 µg/mL | 13 mm
NC(=S)c1ccc(OC(=O)CNc2ccc(Cl)cc2)cc1 | ATCC 16404 | agar diffusion / agar | 100 µg/mL | 19 mm
Cc1[nH]n(C(=O)c2sc3ccc(Cl)cc3c2Cl)c(=O)c1N=Nc1ccc(Cl)cc1Cl | ATCC 9029 | agar diffusion / agar | 40 µg/mL | 28 mm
Cc1ccc(-c2csc(NS(=O)(=O)C3C(=O)ONN3c3ccc(C)cc3)n2)cc1 | MTCC 282 | agar diffusion | 250 µg/mL | 23 mm
Cc1ccc(S(=O)(=O)CNc2oc3[nH]c(=O)[nH]c(=O)c3c2-c2ccc([N+](=O)[O-])cc2)cc1 | - | agar diffusion / agar | 50 µg/mL | 3 mm
Cc1ccc(N=Nc2c(C)[nH]n(C(=O)c3sc4ccc(Cl)cc4c3Cl)c2=O)c(C)c1 | ATCC 9029 | agar diffusion / agar | 40 µg/mL | 14 mm
CN(Cc1cc2ccccc2nc1Cl)c1ccccc1 | MTCC 281 | agar diffusion | 200 µg/mL | 13.24 mm
CC1(C)CCC2=C(C1=O)C(c1cccc(C3C4=C(CCC(C)(C)C4=O)OC4=C3C(=O)C(C)(C)CC4)c1)C1=C(CCC(C)(C)C1=O)O2 | ATCC 10949 | agar diffusion | 40 µg/disc | 0 mm
O=C(NN1C(=O)CSC1C1C(c2ccccc2)=Nc2ccccc21)N1c2ccccc2C=Cc2ccccc21 | MTCC 281 | agar diffusion | 750 µg/mL | 4 mm
O=C(Cc1ccc(-c2nc(-c3ccccc3)c(-c3ccccc3)s2)cc1)CN1CCOCC1 | ATCC 16404 | agar diffusion / agar | 100 µg/mL | 18 mm
Fc1ccc(NCc2cc3ccccc3nc2Cl)cc1Cl | MTCC 281 | agar diffusion | 200 µg/mL | 17.76 mm
Cc1ccc(N2NOC(=O)C2S(=O)(=O)Nc2ccc(-n3c(-c4cccc(Br)c4)nc4ccccc4c3=O)cc2)cc1 | MTCC 282 | agar diffusion | 250 µg/mL | 18 mm
Brc1ccc2c(c1)Sc1cccnc1N2CCCCN1c2ccc(Br)cc2Sc2cccnc21 | MTCC 282 | - | 100 µg/mL | 11 mm
Cc1nc2ccccc2n(CC(=O)NN2C(=O)CSC2c2ccc([N+](=O)[O-])cc2)c1=O | - | - | 100 µg/mL | 23 mm
CN(Cc1cc2ccccc2nc1Cl)c1ccc(F)cc1 | MTCC 281 | agar diffusion | 200 µg/mL | 15.86 mm
Cc1ccc(S(=O)(=O)CNc2oc3[nH]c(=O)[nH]c(=O)c3c2-c2ccc(F)cc2)cc1 | - | agar diffusion / agar | 50 µg/mL | 2 mm
O=C(NN=Cc1ccco1)c1snnc1C(F)(F)F | MTCC 1344 | agar diffusion / agar | 150 µg/mL | 0 mm
C#CCn1c(C(F)(F)F)nc2cc([N+](=O)[O-])ccc21 | MTCC 1344 | - | 500 µg/mL | 600 mm
Cc1cccc(N=Nc2c(C)[nH]n(C(=O)c3sc4ccc(Cl)cc4c3Cl)c2=O)c1C | ATCC 9029 | agar diffusion / agar | 40 µg/mL | 17 mm
O=[N+]([O-])c1ccc2c(c1)nc(C(F)(F)C(F)(F)F)n2CCCCCl | MTCC 1344 | - | 500 µg/mL | 650 mm
Clc1nc2ccccc2cc1CNc1ccccc1 | MTCC 281 | agar diffusion | 200 µg/mL | 11.97 mm
CC(=NNC(=O)c1snnc1C(F)(F)F)c1ccc(Br)cc1Br | MTCC 1344 | agar diffusion / agar | 150 µg/mL | 0 mm
O=C1CC(c2ccccc2)CC2=C1C(c1ccc(C3C4=C(CC(c5ccccc5)CC4=O)OC4=C3C(=O)CC(c3ccccc3)C4)cc1)C1=C(CC(c3ccccc3)CC1=O)O2 | ATCC 10949 | agar diffusion | 140 µg/disc | 0 mm
CC(=O)Nc1ccc(Br)cc1Sc1ncccc1[N+](=O)[O-] | MTCC 282 | - | 100 µg/mL | 16 mm
Cc1ccc(-c2c(NCS(=O)(=O)c3ccc(C)cc3)oc3[nH]c(=O)[nH]c(=O)c23)cc1 | - | agar diffusion / agar | 100 µg/mL | 0 mm
O=C(NN=C1CCCC1)c1snnc1C(F)(F)F | MTCC 1344 | agar diffusion / agar | 100 µg/mL | 0 mm
CC(=Nc1cccc2cccc(N=C(C)c3c(O)ccc4c(C)cc(=O)oc34)c12)c1c(O)ccc2c(C)cc(=O)oc12 | MTCC 1881 | - | 200 µg/mL | 11 mm
CN(C)c1ccc(C=NNC(=O)c2snnc2C(F)(F)F)cc1 | MTCC 1344 | agar diffusion / agar | 150 µg/mL | 0 mm
Cc1ccc(N2NOC(=O)C2S(=O)(=O)Nc2nc3c([N+](=O)[O-])cccc3s2)cc1 | MTCC 282 | agar diffusion | 250 µg/mL | 19 mm
COc1ccc(C2CC(=O)C3=C(C2)OC2=C(C(=O)CC(c4ccc(OC)c(OC)c4)C2)C3c2cccc(C3C4=C(CC(c5ccc(OC)c(OC)c5)CC4=O)OC4=C3C(=O)CC(c3ccc(OC)c(OC)c3)C4)c2)cc1OC | ATCC 10949 | agar diffusion | 40 µg/disc | 0 mm
CC(=O)Nc1nc(C)c(-c2n[nH]c(=S)n2N2C(=O)CSC2c2ccccc2O)s1 | - | agar diffusion | 100 µg/mL | 14 mm
c1ccc(-c2nc(-c3ccc(N4CCOCC4)cc3)sc2-c2ccccc2)cc1 | ATCC 16404 | agar diffusion / agar | 100 µg/mL | 21 mm
CC(=O)N1N=C(c2sc3ccc(Cl)cc3c2Cl)OC1c1ccc(O)cc1 | ATCC 9029 | agar diffusion / agar | 40 µg/mL | 13 mm
Clc1ccc2c(c1)Sc1cccnc1N2CCCCN1c2ccc(Cl)cc2Sc2cccnc21 | MTCC 282 | - | 100 µg/mL | 10 mm
Clc1nc2ccccc2cc1CNc1ccc(Br)cc1 | MTCC 281 | agar diffusion | 200 µg/mL | 13.66 mm
CC(=O)Nc1nc(C)c(-c2n[nH]c(=S)n2N2C(=O)CSC2c2ccccc2[N+](=O)[O-])s1 | - | agar diffusion | 100 µg/mL | 9 mm
Cc1ccc(N2NOC(=O)C2S(=O)(=O)Nc2nc3ccc([N+](=O)[O-])cc3s2)cc1 | MTCC 282 | agar diffusion | 250 µg/mL | 25 mm
Cc1ccc(Cl)cc1N=Nc1c(C)[nH]n(C(=O)c2sc3ccc(Cl)cc3c2Cl)c1=O | ATCC 9029 | agar diffusion / agar | 40 µg/mL | 17 mm
O=C(NN=CC1C(c2ccccc2)=Nc2ccccc21)N1c2ccccc2C=Cc2ccccc21 | MTCC 281 | agar diffusion | 1000 µg/mL | 4 mm
O=C(CNc1ccc(Cl)cc1)COc1ccc(-c2nc(-c3ccccc3)c(-c3ccccc3)s2)cc1 | ATCC 16404 | agar diffusion / agar | 100 µg/mL | 24 mm
CC1(C)CCC2=C(C1=O)C(c1ccc(C3C4=C(CCC(C)(C)C4=O)OC4=C3C(=O)C(C)(C)CC4)cc1)C1=C(CCC(C)(C)C1=O)O2 | ATCC 10949 | agar diffusion | 40 µg/disc | 0 mm
O=C(NN=Cc1ccc(O)cc1)c1snnc1C(F)(F)F | MTCC 1344 | agar diffusion / agar | 100 µg/mL | 0 mm
Cc1nc2ccccc2n(CC(=O)NN2C(=O)CSC2c2ccc(C(F)(F)F)cc2)c1=O | - | - | 50 µg/mL | 13 mm
O=[N+]([O-])c1ccc2c(c1)nc(C(F)(F)F)n2CCCCCl | MTCC 1344 | - | 500 µg/mL | 450 mm
C(=C\CN1c2ccccc2Sc2cccnc21)/CN1c2ccccc2Sc2cccnc21 | MTCC 282 | - | 100 µg/mL | 12 mm
O=C(NN=Cc1cccs1)c1snnc1C(F)(F)F | MTCC 1344 | agar diffusion / agar | 100 µg/mL | 0 mm

Again, the opening 3 rows:

compound,strain or isolate,method,tested at,result
COc1ccc(C2SCC(=O)N2NC(=O)Cn2c(=O)c(C)nc3ccccc32)cc1O,-,-,50 µg/mL,12 mm
CCOC(=O)Cn1c(C(F)(F)C(F)(F)F)nc2cc([N+](=O)[O-])ccc21,MTCC 1344,-,500 µg/mL,850 mm
O=C(CNc1ccc(Cl)cc1)Cc1ccc(-c2nc(-c3ccccc3)c(-c3ccccc3)s2)cc1,ATCC 16404,agar diffusion / agar,100 µg/mL,19 mm